{"source": "paper PMC8351955", "about": "“Targeting Mycobacterium tuberculosis response to environmental cues for the development of effective antitubercular drugs” (PLoS Biology, 2021)", "key": {"[1]": {"tested_on": "J774 cells", "test": "Intracellular drug accumulation assay in J774 cells (LC-MS)", "settings": "uninfected; for Accumulation in host macrophages (Fig. S3B), individual replicates: Rep 1-3; for Accumulation in host macrophages (Fig. S3B), Average: average of 3 replicates"}, "[2]": {"tested_on": "Mtb CDC1551", "test": "Intrabacterial drug accumulation assay (LC-MS)", "settings": "for Accumulation in Mtb (Fig. S3A), individual replicates: Rep 1-3; for Accumulation in Mtb (Fig. S3A), Average: average of 3 replicates"}}, "note": "Where “and” joins values, the source holds several entries; their conditions need not be identical. Identical values can stand only once.", "data": [{"smiles": "CCSc1ncc(CN2CCN(c3nc4ccccc4o3)CC2)cn1", "note": "[C6, 2-(4-((2-(ethylthio)pyrimidin-5-yl)methyl)piperazin-1-yl)benzo[d]oxazole]", "values": [{"measurement": "Accumulation in host macrophages (Fig. S3B), individual replicates", "setting": "[1]", "result": "12.198 nmol/106 cells and 14.0886 nmol/106 cells and 12.6294 nmol/106 cells"}, {"measurement": "Accumulation in host macrophages (Fig. S3B), Average", "setting": "[1]", "result": 12.972, "unit": "nmol/106 cells"}, {"measurement": "Accumulation in Mtb (Fig. S3A), individual replicates", "setting": "[2]; Control medium", "result": "25.7254 pmol/106 cells and 25.933 pmol/106 cells and 26.2031 pmol/106 cells"}, {"measurement": "Accumulation in Mtb (Fig. S3A), Average", "setting": "[2]; Control medium", "result": 25.9538, "unit": "pmol/106 cells"}, {"measurement": "Accumulation in Mtb (Fig. S3A), individual replicates", "setting": "[2]; High [Cl-]", "result": "21.9514 pmol/106 cells and 21.0856 pmol/106 cells and 23.0216 pmol/106 cells"}, {"measurement": "Accumulation in Mtb (Fig. S3A), Average", "setting": "[2]; High [Cl-]", "result": 22.0195, "unit": "pmol/106 cells"}]}, {"smiles": "COc1ncc(CN2CCN(c3nc4ccccc4o3)CC2)cn1", "note": "[JSF-4271, 2-(4-((2-methoxypyrimidin-5-yl)methyl)piperazin-1-yl)benzo[d]oxazole]", "values": [{"measurement": "Accumulation in host macrophages (Fig. S3B), individual replicates", "setting": "[1]", "result": "1.55 nmol/106 cells and 1.455 nmol/106 cells and 1.434 nmol/106 cells"}, {"measurement": "Accumulation in host macrophages (Fig. S3B), Average", "setting": "[1]", "result": 1.48, "unit": "nmol/106 cells"}, {"measurement": "Accumulation in Mtb (Fig. S3A), individual replicates", "setting": "[2]; Control medium", "result": "8.4476 pmol/106 cells and 9.657 pmol/106 cells and 10.6081 pmol/106 cells"}, {"measurement": "Accumulation in Mtb (Fig. S3A), Average", "setting": "[2]; Control medium", "result": 9.571, "unit": "pmol/106 cells"}, {"measurement": "Accumulation in Mtb (Fig. S3A), individual replicates", "setting": "[2]; High [Cl-]", "result": "6.755 pmol/106 cells and 8.783 pmol/106 cells and 8.108 pmol/106 cells"}, {"measurement": "Accumulation in Mtb (Fig. S3A), Average", "setting": "[2]; High [Cl-]", "result": 7.882, "unit": "pmol/106 cells"}]}, {"smiles": "CCSc1ccc(CN2CCN(c3nc4ccccc4o3)CC2)cc1", "note": "[JSF-4300, 2-(4-(4-(ethylthio)benzyl)piperazin-1-yl)benzo[d]oxazole]", "values": [{"measurement": "Accumulation in host macrophages (Fig. S3B), individual replicates", "setting": "[1]", "result": "51.325 nmol/106 cells and 53.8156 nmol/106 cells and 57.9784 nmol/106 cells"}, {"measurement": "Accumulation in host macrophages (Fig. S3B), Average", "setting": "[1]", "result": 54.373, "unit": "nmol/106 cells"}, {"measurement": "Accumulation in Mtb (Fig. S3A), individual replicates", "setting": "[2]; Control medium", "result": "37.8838 pmol/106 cells and 34.3335 pmol/106 cells and 35.5239 pmol/106 cells"}, {"measurement": "Accumulation in Mtb (Fig. S3A), Average", "setting": "[2]; Control medium", "result": 35.9137, "unit": "pmol/106 cells"}, {"measurement": "Accumulation in Mtb (Fig. S3A), individual replicates", "setting": "[2]; High [Cl-]", "result": "31.0031 pmol/106 cells and 31.4711 pmol/106 cells and 27.9073 pmol/106 cells"}, {"measurement": "Accumulation in Mtb (Fig. S3A), Average", "setting": "[2]; High [Cl-]", "result": 30.1272, "unit": "pmol/106 cells"}]}]}
